Measurements from PubChem BioAssay AID898 (University of Pittsburgh Molecular Library Screening Center, 2007).
This is a selection; strong and weak results do not stand in their true shares. The source made the active and inactive calls. No stated cut-off is given here; in the data, active means inhibition above about 50%; inactive means the rest.

Tested on: YopH tyrosine phosphatase [Yersinia enterocolitica]
Assay: YopH tyrosine phosphatase inhibitors, primary screen, biochemical, fluorescence Ex485/Em525 (AID 898)
Details: active compounds read high, concentration not given here

Compound	inhibition
CN1CCCC(OC(=O)C(c2ccccc2)c2ccccc2)C1 (centres undefined)	inactive: -25.6%
CN(C)CCOC(=O)C(O)(c1ccccc1)C1CCCC1 (centres undefined)	inactive: -9.89%
COc1ccc(OP(C)(=O)Nc2ccccn2)cc1 (centres undefined)	inactive: -8.72%
O=C(NC(Sc1ccncn1)C(Cl)(Cl)Cl)c1ccccc1 (centres undefined)	inactive: -18.1%
Cc1c2non([O-])c-2c(C)[n+](=O)[n+]1[O-]	inactive: -25.6%
Oc1ccccc1CNc1ccccn1	inactive: -21.9%
Cc1c(NP(C)(=O)Oc2ccc(C(C)C)cc2)c(=O)n(-c2ccccc2)n1C (centres undefined)	inactive: -49.3%
CC(C)CC(=O)NC(Sc1ccc(Cl)cc1)C(Cl)(Cl)Cl (centres undefined)	inactive: -38.7%
CCc1ccc(OP(C)(=O)O)cc1	inactive: 1.15%
COc1ccccc1OP(C)(=O)Nc1ccc(C)cc1C (centres undefined)	inactive: -26.6%
CP(=O)(Nc1ccccn1)Oc1ccccc1 (centres undefined)	inactive: -29.1%
COc1ccc(OP(C)(=O)Nc2ccccc2Br)cc1 (centres undefined)	inactive: -0.59%
COc1ccccc1OP(C)(=O)Nc1ccc(C)c(C)c1 (centres undefined)	inactive: -52.9%
Cc1cc(SC(NC(=O)c2ccc(F)cc2)C(Cl)(Cl)Cl)ncn1 (centres undefined)	inactive: -22%
CCOP(=O)(Nc1ccccc1)OCC	inactive: 6.46%
Cc1nc2ccc3ccccc3c2o1.O=[N+]([O-])c1cc([N+](=O)[O-])c(O)c([N+](=O)[O-])c1	inactive: -28.1%
CCN(N=Nc1nonc1N)c1nonc1N	inactive: -55.9%
CP(=O)(OC12CC3CC(CC(C3)C1)C2)OC12CC3CC(CC(C3)C1)C2	inactive: 0.5%
CCOC(=O)c1ccc(NP(C)(=O)Oc2ccc(Cl)cc2)cc1 (centres undefined)	inactive: -20.3%
COc1ccc(OP(C)(=O)Nc2ccc(Br)cc2)cc1 (centres undefined)	inactive: -20.8%
CCN(CC)CC(O)COC(=O)C(O)(c1ccccc1)C1CCCCC1 (centres undefined)	inactive: -42.1%
CCc1nc2c(n1)c1c(non1O)c1c2no[n+]1[O-]	inactive: -32.1%
CP(=O)(Oc1ccccc1)N1CCOC1=O (centres undefined)	inactive: -31.2%
O=[N+]([O-])c1cccc2n[nH]nc12	inactive: -4.33%
CC(=O)N1C2C3N(C(C)=O)C1C1N(C(C)=O)C(C(N1C(C)=O)N3C(C)=O)N2C(C)=O	inactive: 2.38%
COc1ccccc1OP(C)(=O)Nc1c(C)n(C)n(-c2ccccc2)c1=O (centres undefined)	inactive: -1.42%
CP(=O)(Nc1ccc(Cl)cc1)Oc1ccc(F)cc1 (centres undefined)	inactive: 5.84%
CC(C)(C)c1ccc(OP(C)(=O)O)cc1	inactive: -25.2%
CC1CCN(C(=O)Oc2c(Cl)cc(Cl)c3cccnc23)CC1	inactive: 5.93%
